Measurements reported in article PMC2008936 (British Journal of Cancer, 1973).

System: bacterial strains used in this work
Assay: Direct toxicity of the compound alone (no liver preparation) to the bacterial strains
Conditions: at the concentrations used

aflatoxin B1
Toxicity of the compound alone (without liver preparation): None of the bacterial strains used in this work were killed
